# Sequence variants of PSTVd loop 6 after infection

Data from the supplement of Wu et al. 2024, doi:10.1371/journal.ppat.1012142.

The pool varies loop 6 of the PSTVd intermediate strain in the pattern UNNNCGNNNG; wild type is UGACCGCGAG (upper and lower strand joined, each 5' to 3', the first 5 letters being the upper strand, closing pairs included).

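A pool of all variants was put on leaves of three Nicotiana benthamiana plants. Progeny were sequenced from the inoculated region (day 5), the margin of the inoculated leaf (day 10) and systemic leaves (day 12).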

Values are reads per thousand in the sample; higher means more abundant, 0 means not found. Each value is the mean of three plants. "Pool" is the share in the plasmid pool used as inoculum, on the same scale. The inoculated region was read from the minus strand, the other sites from the plus strand.

| # | sequence | pool | inoculated region | leaf margin | systemic leaves |
|---|---|---|---|---|---|
| 1 | GUCCCGAAAG | 0.0131 | 0 | 0 | 0 |
| 2 | UAAACGCAAG | 0.0654 | 3.55 | 0.813 | 0.367 |
| 3 | UAACCGGGAG | 0.170 | 0.125 | 0 | 0 |
| 4 | UACACGCCGG | 0.131 | 0.0841 | 0.00773 | 0 |
| 5 | UACACGGUGG | 0.261 | 0.0960 | 0.0155 | 0 |
| 6 | UACGCGUAGG | 0.275 | 0.124 | 0 | 0 |
| 7 | UAGCCGGGGG | 0.0523 | 0.0654 | 0.0431 | 0 |
| 8 | UAGUCGAUCG | 0.209 | 0.0878 | 0.0247 | 0 |
| 9 | UAGUCGUCCG | 0.248 | 0.0657 | 0 | 0 |
| 10 | UAUACGACCG | 0.209 | 0.120 | 0.00773 | 0 |
| 11 | UAUUCGACUG | 0.392 | 0.102 | 0 | 0 |
| 12 | UAUUCGCGAG | 0.288 | 0.172 | 0.0578 | 0.0544 |
| 13 | UAUUCGUAUG | 0.458 | 0.125 | 0.137 | 0 |
| 14 | UCAACGAACG | 0.261 | 0.599 | 0.107 | 0 |
| 15 | UCAACGGACG | 0.157 | 0.843 | 0.164 | 0.0399 |
| 16 | UCAUCGAUCG | 0.288 | 0.0956 | 0.00920 | 0 |
| 17 | UCCACGGAGG | 0.222 | 0.124 | 0.00920 | 0 |
| 18 | UCCACGGGAG | 0.157 | 0.0773 | 0.00773 | 0.00673 |
| 19 | UCCGCGAGGG | 0.170 | 0.0779 | 0 | 0 |
| 20 | UCCGCGGUCG | 0.222 | 0.114 | 0 | 0.00684 |
| 21 | UCGACGAGAG | 0.170 | 0.0833 | 0.00773 | 0.0195 |
| 22 | UCGCCGACGG | 0.248 | 0.126 | 0.00773 | 0 |
| 23 | UCGUCGUAGG | 0.261 | 0.0835 | 0.00920 | 0 |
| 24 | UCUACGACCG | 0.261 | 0.0532 | 0.0169 | 0 |
| 25 | UCUACGACUG | 0.366 | 0.0949 | 0 | 0 |
| 26 | UCUACGCAGG | 0.0915 | 0.119 | 0.00920 | 0 |
| 27 | UCUACGCCUG | 0.261 | 0.0532 | 0.00920 | 0 |
| 28 | UCUACGCUAG | 0.0784 | 0.0715 | 0.00920 | 0 |
| 29 | UCUCCGUCAG | 0.222 | 0.101 | 0.0169 | 0 |
| 30 | UCUGCGGCGG | 0.222 | 0.0784 | 0 | 0 |
| 31 | UGAACGCAGG | 0.183 | 0.150 | 0.0276 | 0.00684 |
| 32 | UGAACGCCAG | 0.235 | 0.818 | 0.118 | 0 |
| 33 | UGAACGCCGG | 0.209 | 0.173 | 0.00773 | 0 |
| 34 | UGAACGGUGG | 0.235 | 0.126 | 0.00920 | 0 |
| 35 | UGACCGCAAG | 0.0131 | 29.8 | 30.3 | 27.3 |
| 36 | UGAGCGGCCG | 0.0915 | 0.0836 | 0.0155 | 0 |
| 37 | UGAUCGACCG | 0.157 | 0.0835 | 0.0184 | 0 |
| 38 | UGAUCGCCCG | 0.379 | 0.107 | 0.0368 | 0.00684 |
| 39 | UGCCCGGGUG | 0.209 | 0.0715 | 0 | 0 |
| 40 | UGCGCGCAUG | 0.131 | 0.0717 | 0 | 0 |
| 41 | UGCGCGGGGG | 0.144 | 0.0827 | 0 | 0 |
| 42 | UGCUCGAGUG | 0.196 | 0.126 | 0 | 0 |
| 43 | UGGACGAGUG | 0.118 | 0.0951 | 0 | 0 |
| 44 | UGGCCACAGG | 0.0131 | 0 | 0 | 0 |
| 45 | UGGCCGGGCG | 0.131 | 0.133 | 0 | 0 |
| 46 | UGUCCGCAGG | 0.222 | 0.100 | 0.0169 | 0 |
| 47 | UGUGCGUGAG | 0.353 | 0.101 | 0.00773 | 0.0203 |
| 48 | UUAACGACAG | 0.235 | 0.583 | 0.0606 | 0 |
| 49 | UUAACGACGG | 0.314 | 0.0594 | 0 | 0 |
| 50 | UUAACGUGGG | 0.118 | 0.137 | 0.00773 | 0 |
| 51 | UUAUCGGGGG | 0.118 | 0.0782 | 0 | 0 |
| 52 | UUAUCGUUGG | 0.301 | 0.0769 | 0 | 0 |
| 53 | UUCCCGAAUG | 0.379 | 0.148 | 0.00920 | 0 |
| 54 | UUCCCGCGUG | 0.144 | 0.0956 | 0.0414 | 0.00684 |
| 55 | UUCCCGCUGG | 0.209 | 0.0590 | 0 | 0 |
| 56 | UUCCCGGCGG | 0.157 | 0.0896 | 0.0169 | 0 |
| 57 | UUCUCGGGGG | 0.183 | 0.108 | 0 | 0 |
| 58 | UUGACGAUCG | 0.183 | 0.109 | 0 | 0 |
| 59 | UUGCCGGAGU | 0.0131 | 0 | 0 | 0 |
| 60 | UUGGCGGGCG | 0.340 | 0.102 | 0.00773 | 0 |
| 61 | UUGUCGUCAG | 0.301 | 0.0603 | 0 | 0 |
| 62 | UUUACGUUCG | 0.248 | 0.102 | 0.00920 | 0 |
| 63 | UUUCCGGUUG | 0.327 | 0.101 | 0.00773 | 0 |
| 64 | UUUGCAGAGG | 0.0131 | 0 | 0 | 0 |
| 65 | UUUGCGUUGG | 0.183 | 0.0643 | 0 | 0 |
| 66 | UUUUCGCCCG | 0.209 | 0.113 | 0.0184 | 0 |
| 67 | UUUUCGGCGG | 0.131 | 0.0543 | 0.0169 | 0 |

Samples held 36,220 to 57,551 reads, so the smallest values rest on one or two reads. Wild type was 20.7 per thousand in the pool and the most common sequence in every sample (inoculated region 195, 198, 203; leaf margin 629, 591, 734; systemic leaves 942, 870, 868). Sequences that differ at fixed positions probably stem from PCR or sequencing errors, and defective variants can be carried along by functional ones.